Pooled drug test results. Numbers come from NIAID ChemDB, via PubChem.

Shared fields: growth or infection tests; species: HIV-1; cell line: MT-2; read-out: EC50

ECn: concentration that inhibits the pathogen or its effect by n%.

| smiles | strain | mutations | method | setting | result |
|---|---|---|---|---|---|
| N#Cc1cccc(Nc2nnc(Cc3c(Cl)cccc3Cl)o2)c1 | IIIB | - | MTT | - | 4.2 µM |
| CC(C)C1=C2[C@H]3CC[C@@H]4[C@@]5(C)CC[C@H](OC(=O)[C@H]6C[C@@H](C(=O)O)C6(C)C)C(C)(C)[C@@H]5CC[C@@]4(C)[C@]3(C)CC[C@@]2(CC(=O)NCC(F)(F)NC(=O)c2ccc(Cl)cc2)CC1=O | 92HT599 | - | p24 / ELISA | - | <1 µM |
| CC1=C(CCC(=O)O)c2cc3nc(cc4[nH]c(cc5[nH]c(cc1n2)c(CCC(=O)O)c5CC(=O)O)c(CCC(=O)O)c4C)C(CCC(=O)O)=C3C | IIIB | - | cytopathic effect / XTT | - | 37.5 µg/mL |
| CC(C)C1=C2[C@H]3CC[C@@H]4[C@@]5(C)CC[C@H](OC(=O)[C@H]6C[C@@H](C(=O)O)C6(C)C)C(C)(C)[C@@H]5CC[C@@]4(C)[C@]3(C)CC[C@@]2(CCNC(=O)c2ccncc2)CC1=O | 92HT599 | - | p24 / ELISA | - | <1 µM |
| CC(C)C1=C2C3CCC4[C@@]5(C)CC[C@H](OC(=O)CC(C)(C)C(=O)O)C(C)(C)C5CC[C@@]4(C)[C@]3(C)CC[C@@]2(NC(=O)OC(C)C2CC2)CC1=O | IIIB | - | RT activity | 30% human serum | <0.199 µM |
| CC(C)C1=C2[C@H]3CC[C@@H]4[C@@]5(C)CC[C@H](OC(=O)[C@H]6C[C@@H](C(=O)O)C6(C)C)C(C)(C)[C@@H]5CC[C@@]4(C)[C@]3(C)CC[C@@]2([C@@H](O)CNC(=O)C2(NC(=O)c3ccc(Cl)cc3)CC2)CC1=O | 92HT599 | - | p24 / ELISA | - | <1 µM |
| CC1=C(CCC(=O)O)c2cc3[nH]c(cc4nc(cc5[nH]c(cc1n2)c(CCC(=O)O)c5CC(=O)O)C(CCC(=O)O)=C4C)c(CCC(=O)O)c3CC(=O)O | IIIB | - | cytopathic effect / XTT | - | 16.9 µg/mL |
| Cc1nnc(-c2ccc(CNCC[C@@]34CC[C@]5(C)[C@H](CC[C@@H]6[C@@]7(C)CC[C@H](OC(=O)[C@H]8C[C@@H](C(=O)O)C8(C)C)C(C)(C)[C@@H]7CC[C@]65C)C3=C(C(C)C)C(=O)C4)cc2)o1 | 92HT599 | - | p24 / ELISA | - | <1 µM |
| CC(C)C1=C2C3CCC4[C@@]5(C)CC[C@H](OC(=O)CC(C)(C)C(=O)O)C(C)(C)C5CC[C@@]4(C)[C@]3(C)CC[C@@]2(NC(=O)N(C)C)CC1=O | IIIB | - | RT activity | 30% human serum | <0.199 µM |
| Cc1cc(Nc2nnc(Cc3c(Cl)cccc3Cl)o2)ccc1Cl | IIIB | - | MTT | - | 1.7 µM |
| Cc1nnc(C(=O)N[C@@]23CC[C@]4(C)C(CCC5[C@@]6(C)CC[C@H](OC(=O)CC(C)(C)CC(=O)O)C(C)(C)C6CC[C@]54C)C2=C(C(C)C)C(=O)C3)o1 | IIIB | - | RT activity | 30% human serum | <0.199 µM |
| O=C(O)c1ccc(-c2c3nc(c(-c4ccc(C(=O)O)cc4)c4ccc([nH]4)c(-c4ccc(C(=O)O)cc4)c4nc(c(-c5ccc(C(=O)O)cc5)c5ccc2[nH]5)C=C4)C=C3)cc1 | IIIB | - | cytopathic effect / XTT | - | 0.37 µg/mL |
| Nc1ncnc2c1ncn2[C@@H]1C=C(F)[C@H](CO)[C@H]1CO | IIIB | - | MTT | - | >1 µM |
| Nc1nc(NC2CC2)c2ncn([C@H]3C=C[C@@H](CO)C3)c2n1 | Clinical isolate | M41L/A98G/K103N/M184V/L210W/T215Y | recombinant virus assay | - | 0.8448 µM |
| Nc1ncnc2c1ncn2[C@@H]1C=C(Cl)[C@H](CO)[C@H]1CO | IIIB | - | MTT | - | >1 µM |
| CC(C)C1=C2C3CCC4[C@@]5(C)CC[C@H](OC(=O)CC(C)(C)C(=O)O)C(C)(C)C5CC[C@@]4(C)[C@]3(C)CC[C@@]2(NC(=O)OC2CCN(C)CC2)CC1=O | IIIB | - | RT activity | 30% human serum | <0.199 µM |
| CC(C)C1=C2[C@H]3CC[C@@H]4[C@@]5(C)CC[C@H](OC(=O)[C@H]6C[C@@H](C(=O)O)C6(C)C)C(C)(C)[C@@H]5CC[C@@]4(C)[C@]3(C)CC[C@@]2(CCNCc2ccccc2)CC1=O | 92HT599 | - | p24 / ELISA | - | <1 µM |
| CC(C)C1=C2C3CCC4[C@@]5(C)CC[C@H](OC(=O)CC(C)(C)C(=O)O)C(C)(C)C5CC[C@@]4(C)[C@]3(C)CC[C@@]2(NC(=O)N[C@H](C)c2ccccc2)CC1=O | IIIB | - | RT activity | 30% human serum | <0.199 µM |
| COc1ccnc2[nH]cc(C(=O)C(=O)N3CCN(C(=O)c4ccccc4)C[C@H]3C)c12 | LAI (gp120/gp41 M434I I595F) Recombinant | GP120/GP41-M434I I595F | RT activity | - | 1.99 µM |
| CC(C)C1=C2C3CCC4[C@@]5(C)CC[C@H](OC(=O)CC(C)(C)C(=O)O)C(C)(C)C5CC[C@@]4(C)[C@]3(C)CC[C@@]2(NC(=O)O[C@@H]2CCN(C)C2)CC1=O | IIIB | - | RT activity | 30% human serum | <0.199 µM |
| CC(C)C1=C2[C@H]3CC[C@@H]4[C@@]5(C)CC[C@H](OC(=O)[C@H]6C[C@@H](C(=O)O)C6(C)C)C(C)(C)[C@@H]5CC[C@@]4(C)[C@]3(C)CC[C@@]2(CCNCC(C)(C)NC(=O)CN(C)C)CC1=O | 92HT599 | - | p24 / ELISA | - | <1 µM |
| Cc1cc(C#N)cc(C)c1Nc1nnc(Nc2ccc(Cl)cc2)o1 | IIIB | - | MTT | - | 34 µM |
| CC(C)C1=C2[C@H]3CC[C@@H]4[C@@]5(C)CC[C@H](OC(=O)CC(C)(C)C(=O)O)C(C)(C)[C@@H]5CC[C@@]4(C)[C@]3(C)CC[C@@]2(NC(=O)NC2CNC2)CC1=O | IIIB | - | RT activity | 30% human serum | 0.2–0.999 µM |
| C=Cc1c(C)c2cc3[nH]c(cc4nc(cc5nc(cc1[nH]2)C(C)=C5CCC(=O)O)C(CCC(=O)O)=C4C)c(C)c3C=C | IIIB | - | cytopathic effect / XTT | - | 1 µg/mL |
| N#Cc1ccc(Nc2nnc(Cc3c(F)cccc3F)o2)cc1 | IIIB | - | MTT | - | 0.23 µM |
| CC(C)C1=C2[C@H]3CC[C@@H]4[C@@]5(C)CC[C@H](OC(=O)[C@H]6C[C@@H](C(=O)O)C6(C)C)C(C)(C)[C@@H]5CC[C@@]4(C)[C@]3(C)CC[C@@]2([C@@H](O)CNC(=O)C(C)(C)NC(=O)c2ccc(Cl)cc2OCCN2CCCC2)CC1=O | 92HT599 | - | p24 / ELISA | - | <1 µM |
| C1=Cc2nc1c(-c1ccccc1)c1ccc([nH]1)c(-c1ccccc1)c1nc(c(-c3ccccc3)c3ccc([nH]3)c2-c2ccccc2)C=C1 | IIIB | - | cytopathic effect / XTT | - | 38.2 µg/mL |
| COCc1ccc(Nc2nnc(Cc3c(Cl)cccc3Cl)o2)cc1Cl | IIIB | - | MTT | - | 1.3 µM |
| CC(C)C1=C2[C@H]3CC[C@@H]4[C@@]5(C)CC[C@H](OC(=O)CC(C)(C)C(=O)O)C(C)(C)[C@@H]5CC[C@@]4(C)[C@]3(C)CC[C@@]2(NC(=O)Nc2ccccc2)CC1=O | IIIB | - | RT activity | 30% human serum | <0.199 µM |
| Cc1cn([C@H]2C=C[C@@](C#N)(CO)O2)c(=O)[nH]c1=O | - | - | cytopathic effect | - | 7 µM |
| C[C@H](Cn1cnc2c(N)ncnc21)OCP(=O)(O)O | Clinical isolate | D67N/T69N/K70R/A98G/M184V/G190S/T215F/K219Q | recombinant virus assay | - | 0.0056 µM |
| Fc1ccc(Nc2ncc(Cc3c(F)cccc3F)o2)cc1 | IIIB | - | MTT | - | 0.47 µM |

Repeating the final 5 entries:

smiles	strain	mutations	method	setting	result
COCc1ccc(Nc2nnc(Cc3c(Cl)cccc3Cl)o2)cc1Cl	IIIB	-	MTT	-	1.3 µM
CC(C)C1=C2[C@H]3CC[C@@H]4[C@@]5(C)CC[C@H](OC(=O)CC(C)(C)C(=O)O)C(C)(C)[C@@H]5CC[C@@]4(C)[C@]3(C)CC[C@@]2(NC(=O)Nc2ccccc2)CC1=O	IIIB	-	RT activity	30% human serum	<0.199 µM
Cc1cn([C@H]2C=C[C@@](C#N)(CO)O2)c(=O)[nH]c1=O	-	-	cytopathic effect	-	7 µM
C[C@H](Cn1cnc2c(N)ncnc21)OCP(=O)(O)O	Clinical isolate	D67N/T69N/K70R/A98G/M184V/G190S/T215F/K219Q	recombinant virus assay	-	0.0056 µM
Fc1ccc(Nc2ncc(Cc3c(F)cccc3F)o2)cc1	IIIB	-	MTT	-	0.47 µM

Lines come from different laboratories, so protocols vary. a–b is a range or a potency band. Blank or dashed fields: not listed here.